Results of unrelated studies side by side (data: NIAID ChemDB).

Common to all: tests in culture; species: Mycobacterium avium; endpoint: MIC

Conditions beyond the fields shown may differ between rows. Blank or dashed fields: not listed here.

structure | strain or isolate | setting | result
Clc1ccc(/C(Cn2ccnc2)=N\OC/C=C/c2ccccc2)c(Cl)c1 | CIP103317 |  | 8 µg/mL
CCCCCCCCCCCCCCCCS(=O)(=O)NC[C@H]1O[C@H](O[C@H]2O[C@H](CNS(=O)(=O)CCCCCCCCCCCCCCCC)[C@@H](O)[C@H](O)[C@H]2O)[C@H](O)[C@@H](O)[C@@H]1O | NJ211 |  | >32 µg/mL
O=c1oc2ccc(F)cc2c(=S)n1-c1ccc(Br)cc1 | MY330/88 | 21 d | 8 µM
CCCCCOc1ccc(NC(=O)OCCC[NH+]2CCCCC2)cc1 | MY330/88 |  | 62.5 µM
CC(C)C[C@H](NC(=O)OCc1ccccc1)c1cnc(-c2ccccc2)[nH]1 | MY330/88 | 14 d | >250 µM
N#CCSc1cc(C#N)ccn1 | 330/88 |  | 62 µM
NC(=S)c1cnccn1 | ATCC 25291 |  | >200 µg/mL
CCCCS(=O)(=O)NC[C@H]1O[C@H](O[C@H]2O[C@H](CNS(=O)(=O)CCC)[C@@H](O)[C@H](O)[C@H]2O)[C@H](O)[C@@H](O)[C@@H]1O | NJ168 |  | >128 µg/mL
N#CCSc1ccnc(C#N)c1 | 330/88 |  | 500 µM
CCCCc1ccc(NC(=S)c2cccc(C)c2)cc1 | MY330/88 |  | 32 µM
CCCCCC(CC)OC(=O)c1cnc(Cl)cn1 | 101 |  | 64 µg/mL
Cc1ccc2nc(SCc3cccc(Cl)c3)[nH]c2c1 | MY330/88 |  | 32 µM
Cc1ccc2oc(=O)n(-c3ccc(F)cc3)c(=S)c2c1 | MY330/88 | 21 d | 4 µM
O=C(Oc1ccc(Cl)cc1)c1cnccn1 | 330/88 | 21 d | >500 µM
Cc1ccc2nc(SCc3ccccc3F)[nH]c2c1 | MY330/88 |  | 125 µM
O=C(N/N=C(\COc1cccc(Cl)c1)N=Cc1ccncc1)c1ccncc1 | ATCC 19421 |  | >100 µg/mL
CCCCCCC(C)(CCCC)OC(=O)c1cnc(Cl)cn1 | 101 |  | >256 µg/mL
NC(=O)c1cnccn1 | ATCC 25291 |  | >200 µg/mL
C[C@@H](NC(=O)OCc1ccccc1)c1cnc(-c2ccccc2)[nH]1 | MY330/88 | 21 d | 250 µM
Clc1ccc2c(c1)nc1cc(Nc3ccccc3)c(=NC3CCCCC3)cc-1n2-c1ccccc1 | 18698 |  | 0.7 µg/mL
Cc1ccc2nc(SCc3cccc(C#N)c3)[nH]c2c1 | MY330/88 |  | 125 µM
CCCCCCCCCCCCOc1ccc(NC(=O)OCCC[NH+]2CCCCC2)cc1 | MY330/88 |  | 8 µM
O=C(Oc1cc(Cl)ccc1C(=O)Nc1cccc(Cl)c1)c1cnccn1 | 330/88 | 21 d | 8 µM
CCCCCCCCCCCCCCCCCCN(C)C[C@H]1O[C@H](O[C@H]2O[C@H](CN(C)CCCCCCCCCCCCCCCCCC)[C@@H](O)[C@H](O)[C@H]2O)[C@H](O)[C@@H](O)[C@@H]1O | NJ211 |  | >128 µg/mL
COc1cccc(OC/C(N)=N\NC(=O)c2ccncc2)c1 | ATCC 19421 |  | >100 µg/mL
N#CCCCSc1ccnc(C(=N)N)c1 | 330/88 |  | 1000 µM
Cc1ccc2nc(SCc3ccc(Cl)c(Cl)c3)[nH]c2c1 | MY330/88 |  | 32 µM
O=c1oc2ccc(Br)cc2c(=S)n1-c1cccc(F)c1 | MY330/88 | 14 d | 16 µM
Clc1ccc(/C(Cn2ccnc2)=N\OCc2cccc3ccccc23)cc1 | CIP103317 |  | >16 µg/mL
Cc1ccc2[nH]c(=S)[nH]c2c1 | MY330/88 |  | 500 µM
N#CCCSc1cc(C(N)=S)ccn1 | 330/88 |  | 125 µM
Fc1ccc(/C(Cn2ccnc2)=N/OCc2ccc(-c3ccccc3)cc2)cc1 | CIP103317 |  | 8 µg/mL
Cc1ccccc1OC/C(N)=N\NC(=O)c1ccncc1 | ATCC 19421 |  | >100 µg/mL
O=c1oc2ccc([N+](=O)[O-])cc2c(=O)n1Cc1ccc(Cl)c(Cl)c1 | MY330/88 |  | 250 µM
CC(C)c1ccc(NC(=S)c2cccc(Cl)c2)cc1 | MY330/88 |  | 62.5 µM
CCCOc1cccc(NC(=O)OCCN2CCCCCC2)c1 | MY330/88 |  | 125 µM
CCCCCCCCCCCC(N)=NC[C@H]1O[C@H](O[C@H]2O[C@H](CN)[C@@H](O)[C@H](O)[C@H]2O)[C@H](O)[C@@H](O)[C@@H]1O | NJ168 |  | >128 µg/mL
O=C(Oc1cc(Cl)ccc1C(=O)Nc1ccc(F)cc1)c1cnccn1 | 330/88 | 14 d | 2 µM
CCCCCCCOc1ccccc1NC(=O)OCCN1CCOCC1 | MY330/88 |  | 62.5 µM
S=C(Nc1ccc(C2CCCCC2)cc1)c1cccc(Cl)c1 | MY330/88 |  | 32 µM
C[C@@H](NC(=O)OCc1ccccc1)c1cnc(-c2ccc([N+](=O)[O-])cc2)[nH]1 | MY330/88 | 21 d | >125 µM
Clc1ccc(/C(Cn2ccnc2)=N/OC/C=C/c2ccccc2)cc1 | CIP103317 |  | >16 µg/mL
O=c1oc2ccc(F)cc2c(=S)n1-c1ccc(F)cc1 | MY330/88 | 14 d | 8 µM
CCCCOc1ccccc1NC(=O)OCCN1CCOCC1 | MY330/88 |  | 250 µM
CCCCC(CC)CNC[C@H]1O[C@H](O[C@H]2O[C@H](CO)[C@@H](O)[C@H](O)[C@H]2O)[C@H](O)[C@@H](O)[C@@H]1O | NJ211 |  | >128 µg/mL
COC(=O)c1cnccn1 | ATCC49601 |  | >256 µg/mL
CCCCCCCCOc1ccc(NC(=O)OCCC[NH+]2CCCCC2)cc1 | MY330/88 |  | 16 µM
CCCCCCCOc1ccc(NC(=O)OCCN2CCOCC2)cc1 | MY330/88 |  | 32 µM
Cc1c(C)c(C)[c-](C)c1C.N[C@H](C(=O)[O-])c1ccccc1.[Cl][Rh+2] | A5 |  | >250 µg/mL
CCOc1ccc(NC(=O)OCCC[NH+]2CCCCC2)cc1 | MY330/88 |  | 500 µM
CCCCCCCC(OC(=O)c1cnc(Cl)cn1)C(C)(C)C | 101 |  | >256 µg/mL
O=C(Oc1ccc(Cl)cc1C(=O)Nc1cccc(C(F)(F)F)c1)c1cnccn1 | 330/88 | 14 d | 8 µM
CCCCCCCCC(CC)OC(=O)c1cnc(Cl)cn1 | 101 |  | >256 µg/mL
Clc1ccc(/C(Cn2ccnc2)=N\OCc2ccccc2)c(Cl)c1 | CIP103317 |  | >16 µg/mL
CCCCCCCC(O)CC(=O)CCc1ccc(O)c(OC)c1 |  |  | 50 µg/mL
Cc1ccc2nc(SCc3ccc([N+](=O)[O-])cc3[N+](=O)[O-])[nH]c2c1 | MY330/88 |  | >125 µM
O=C(N/N=C(\COc1ccc([N+](=O)[O-])cc1)N=Cc1cccnc1)c1ccncc1 | ATCC 19421 |  | >100 µg/mL
Cc1ccc(Cn2c(=O)oc3ccc([N+](=O)[O-])cc3c2=O)cc1 | MY330/88 |  | 500 µM
CC[C@@H](C)[C@H](NC(=O)OCc1ccccc1)c1cnc(-c2ccccc2)[nH]1 | MY330/88 | 14 d | >250 µM
CCCCCCCCOc1cccc(NC(=O)OCCC[NH+]2CCCCC2)c1 | MY330/88 |  | 16 µM
COc1cccc(C(=S)Nc2ccc(C(C)C)cc2)c1 | MY330/88 |  | 62.5 µM
NC(=S)c1ccnc(N2CCCCC2)c1 | 330/88 |  | 500 µM
O=c1oc2ccccc2c(=O)n1Cc1ccc(F)cc1 | MY330/88 |  | 125 µM
COc1ccc2oc(=O)n(-c3ccc(F)cc3)c(=S)c2c1 | MY330/88 | 21 d | 62.5 µM
COc1ccccc1NC(=O)OCCC[NH+]1CCCCC1 | MY330/88 |  | 500 µM
O=C(Oc1cc(Cl)ccc1C(=O)Nc1ccc(C(F)(F)F)cc1)c1cnccn1 | 330/88 | 21 d | 8 µM
CCCCCOc1ccccc1NC(=O)OCCN1CCCCC1 | MY330/88 |  | 125 µM
O=S(=O)(NC[C@H]1O[C@H](O[C@H]2O[C@H](CNS(=O)(=O)c3ccccc3)[C@@H](O)[C@H](O)[C@H]2O)[C@H](O)[C@@H](O)[C@@H]1O)c1ccccc1 | NJ168 |  | >128 µg/mL

For reference, 4 entries again:

{"structure": "Cc1ccccc1OC/C(N)=N\\NC(=O)c1ccncc1", "strain or isolate": "ATCC 19421", "result": ">100 µg/mL"}
{"structure": "CCCCCOc1ccc(NC(=O)OCCC[NH+]2CCCCC2)cc1", "strain or isolate": "MY330/88", "result": "62.5 µM"}
{"structure": "Cc1ccc2[nH]c(=S)[nH]c2c1", "strain or isolate": "MY330/88", "result": "500 µM"}
{"structure": "N#CCSc1cc(C#N)ccn1", "strain or isolate": "330/88", "result": "62 µM"}